From US20230227512A1

Molecular target: BG505 SOSIP.664 HIV-1 Env ectodomain trimer
Assay: SPR

Q: With “soluble CD4 (sCD4) (from UniProt P01730 26-208)” as the substance, how does the Kd read?
A: 0.9 nM
